Results of unrelated studies side by side (data: NIAID ChemDB).

Shared fields: tests in culture; agent: HIV-1; measure: inhibition

Conditions beyond the fields shown may differ between rows.

compound,setting,cells,strain,method,dose,value
CCNc1cccnc1N1CCN(C(=O)c2cc3cc(OC)ccc3[nH]2)CC1,-,PBMC,Seropositive clinical isolate D,MTT,1 µM,48%
O=CCNC(=O)[C@@H]1CCCN1,-,H9,IIIB,p24,25 µg/mL,62.1%
O=c1[nH]cnc2c1ncn2[C@H]1CC[C@@H](CO)O1,-,PBMC,IIIB,p24,0.25 µM,30%
O=S(=O)(O)c1cc(N=C=S)ccc1/C=C/c1ccc(N=C=S)cc1S(=O)(=O)O,-,C8166,RF,p24,50 µg/mL,67%
c1cc(CN2CCCNCCNCCCNCC2)ccc1CN1CCCNCCNCCCNCC1,-,PBMC,92RW026 CLADE A R5,p24,0.1 µM,23%
O=C1N(Cc2ccc(CO)cc2)[C@H](Cc2ccccc2)[C@H](O)[C@@H](O)[C@@H](Cc2ccccc2)N1Cc1ccc(CO)cc1,-,PBMC,IIIB,virus yield,0.14 µM,90%
CC(C)[C@H](NC(=O)c1ccc2ccccc2n1)C(=O)N[C@@H](Cc1ccccc1)[C@H](O)CN1CC[C@@H](OCc2ccncc2)C[C@H]1C(=O)NC(C)(C)C,-,PBMC,Wg3522,p24,0.05 µM,90%
NC(N)=NCCC[C@@H](C=O)NC(=O)CNC(=O)[C@@H]1CCCN1,-,HUT,ELI,p24,25 µg/mL,0%
Cc1cn([C@H]2C[C@H](N=[N+]=[N-])[C@@H](CO)O2)c(=O)[nH]c1=O,-,PBL (activated) + PBL,IIIB,RT activity,0.03 µM,98%
CCCCCCCCCCCCCCCCOP(=O)(OC[C@H]1OC(O)[C@H](O)[C@@H](O)[C@@H]1O)OC[C@H]1O[C@@H](n2cc(C)c(=O)[nH]c2=O)C[C@@H]1N=[N+]=[N-],7 d,PBL,LAV-Bru,RT activity,25 µM,91%
Oc1ccc(/C=C/c2cc(O)cc(O)c2)cc1,-,PBMC (resting) + PBMC,IIIB,p24,5 µM,60%
Cc1cn([C@H]2C[C@H](N=[N+]=[N-])[C@@H](COP(=O)(O)OC[C@H]3OC(O)[C@H](O)[C@@H](O)[C@@H]3O)O2)c(=O)[nH]c1=O,15 d,CEM,LAV-Bru,RT activity,0.2 µM,96%
Nc1nc(NC2CC2)c2ncn([C@H]3C=C[C@@H](CO)C3)c2n1,-,PBL (resting) + PBL,SF162 R5,RT activity,4 µM,97%
NC(N)=NCCC[C@H](N)C(=O)NCC(=O)N1CCC[C@H]1C(=O)NCC=O,-,H9,IIIB,syncytia,250 µg/mL,10%
Nc1ccn([C@H]2CC[C@@H](CO)O2)c(=O)n1,-,PBL (resting) + PBL,SF162 R5,RT activity,0.2 µM,95%
NCC(=O)N1CCC[C@H]1C(=O)NCC=O,-,HUT,ELI,p24,250 µg/mL,0%
Cc1cn([C@H]2C[C@H](N=[N+]=[N-])[C@@H](COP(=O)(O)OC[C@H]3OC(O)[C@@H](O)[C@@H](O)[C@@H]3O)O2)c(=O)[nH]c1=O,26 d,CEM,LAV-Bru,RT activity,0.2 µM,0%
O=C(O)P(=O)(O)O,10 d,PBL,IIIB,-,64 µM,70%
C/C(=C(/CCO)SS/C(CCO)=C(\C)N(C=O)Cc1cnc(C)nc1N)N(C=O)Cc1cnc(C)nc1N,-,CEM/HIV-1(LAV-1) + CEM,LAV-1,p24,500 µM,90%
C[C@@H](C=O)NC(=O)[C@@H]1CCCN1C(=O)CN,-,H9,IIIB,p24,250 µg/mL,0%

The last 2 rows once more:

| compound | setting | cells | strain | method | dose | value |
|---|---|---|---|---|---|---|
| C/C(=C(/CCO)SS/C(CCO)=C(\C)N(C=O)Cc1cnc(C)nc1N)N(C=O)Cc1cnc(C)nc1N | - | CEM/HIV-1(LAV-1) + CEM | LAV-1 | p24 | 500 µM | 90% |
| C[C@@H](C=O)NC(=O)[C@@H]1CCCN1C(=O)CN | - | H9 | IIIB | p24 | 250 µg/mL | 0% |

Percent inhibition refers to the dose given; in toxicity tests it is the harm to the cells. Blank or dashed fields: not listed here.